Data as given in PubChem BioAssay AID624099 (ICCB-Longwood, 2012).

Test: 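Host factors E2 relies on to silence an HPV18 LCR reporter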 (primary screen)
Cells: human C33A cervical carcinoma cells (HPV-negative) stably expressing BPV1 E2 and an HPV18 LCR luciferase reporter
Knock-down reagent: siRNA pool against human genes, 40 nM
Timing: 72 h
Measured: 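Per-well luciferase luminescence, z-scored on each plate against the plate mean and SD with control wells left out, then averaged across three replicate plates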
Scale: mean z-score and z-score: higher = stronger reporter signal, weaker E2 silencing
Hit rule: 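Hit if mean z-score reaches 2 and two or more of three replicate z-scores also reach 2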
Shown is one part, drawn at random, of about 21,000 deposited reagents. Over the whole deposit, 497 (2.4%) were called active. 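Higher z means weaker E2 silencing; only reporter increases were scored, and knock-downs that hurt cell survival may mask genuine repressor factors.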

For TXN2, the entry reads mean z-score 0.48; z-score, replicate A = 0.5; z-score, replicate B = 0.38; z-score, replicate C = 0.55; inactive. Knock-down of NOD1 gave: mean z-score 0.06; z-score, replicate A = 0.29; z-score, replicate B = 0.18; z-score, replicate C = -0.29; inactive. Against KIF1A the deposit lists mean z-score -0.52; z-score, replicate A = -0.45; z-score, replicate B = -0.66; z-score, replicate C = -0.46; inactive. For LOC132870 (retired record) the deposit lists mean z-score 1.01; z-score, replicate A = 1.12; z-score, replicate B = 0.97; z-score, replicate C = 0.94; inactive. Silencing of UBXN2A came out at: mean z-score 0.07; z-score, replicate A = 0.15; z-score, replicate B = 0.14; z-score, replicate C = -0.08; inactive. RBMY1F scored mean z-score -0.79; z-score, replicate A = -0.69; z-score, replicate B = -1.16; z-score, replicate C = -0.52; inactive.

Against MAGEA1 the deposit lists mean z-score 0; z-score, replicate A = 0.05; z-score, replicate B = 0.06; z-score, replicate C = -0.11; inactive. With knock-down of HLA-DPA1, the screen gave mean z-score 1.01; z-score, replicate A = 1.1; z-score, replicate B = 0.95; z-score, replicate C = 0.99; inactive.

Ordered by “z-score, replicate A” (low to high): some entries from above
RBMY1F | mean z-score = -0.79; z-score, replicate A = -0.69; z-score, replicate B = -1.16; z-score, replicate C = -0.52; outcome = inactive
MAGEA1 | mean z-score = 0; z-score, replicate A = 0.05; z-score, replicate B = 0.06; z-score, replicate C = -0.11; outcome = inactive
UBXN2A | mean z-score = 0.07; z-score, replicate A = 0.15; z-score, replicate B = 0.14; z-score, replicate C = -0.08; outcome = inactive

Next reagents follow:
For MKI67 the deposit lists mean z-score 0.3; z-score, replicate A = 0.26; z-score, replicate B = 0.27; z-score, replicate C = 0.36; inactive. Depletion of SH3BGR resulted in: mean z-score 0.26; z-score, replicate A = 0.2; z-score, replicate B = 0.58; z-score, replicate C = 0; inactive. Depletion of NUCLEOLIN gave: mean z-score -1.86; z-score, replicate A = -1.62; z-score, replicate B = -1.82; z-score, replicate C = -2.13; inactive. With knock-down of ZNF433 the results were mean z-score 0.57; z-score, replicate A = 0.65; z-score, replicate B = 0.33; z-score, replicate C = 0.74; inactive. Against NMI the deposit lists mean z-score -0.05; z-score, replicate A = 0.23; z-score, replicate B = -0.04; z-score, replicate C = -0.34; inactive. RRM1 gave mean z-score 0.21; z-score, replicate A = 0.94; z-score, replicate B = -0.15; z-score, replicate C = -0.16; inactive.

Silencing of COX6A2 resulted in: mean z-score -1.04; z-score, replicate A = -1.06; z-score, replicate B = -1.21; z-score, replicate C = -0.85; inactive. CALML4 showed mean z-score -0.89; z-score, replicate A = -0.85; z-score, replicate B = -0.77; z-score, replicate C = -1.06; inactive. Against YEATS4 the deposit lists mean z-score 2.54; z-score, replicate A = 2.38; z-score, replicate B = 2.66; z-score, replicate C = 2.58; active. For SLC27A6, the values are mean z-score 0.32; z-score, replicate A = 0.01; z-score, replicate B = 0.08; z-score, replicate C = 0.86; inactive. GLP2R gave mean z-score 0.07; z-score, replicate A = -0.03; z-score, replicate B = 0.22; z-score, replicate C = 0.04; inactive. OR2AK2 scored mean z-score 0.66; z-score, replicate A = 0.87; z-score, replicate B = 0.56; z-score, replicate C = 0.54; inactive.

After knock-down of VAX2 the results were mean z-score 1.09; z-score, replicate A = 0.91; z-score, replicate B = 1.2; z-score, replicate C = 1.15; inactive.
